Data on two sequences can be found in publication PMC8281045.

Construct, isoform or probe ends are uncertain for at least one entry.

The test system of the data set is GluR-His (Burkholderia glumae BGR1). Kind of data set: EMSA. The following applies: 0.75 uM GluR-His, 1 nM labeled DNA; 10 mM Tris-HCl pH 7.5, 100 mM NaCl, 5% glycerol; 1 nM biotin-labeled DNA; 4% polyacrylamide gel; temperature not stated; recombinant protein; protein details: His; label: biotin; letters put together from the description.

“CGTCGCGCTACGCCTGGACGGTCAAGCTGGCAAACGGCCTGGAGATCGAGTTCGGGCGCGAGCGCAACGCGGACACGCTGCCCGATCGCGCGCAACGGCTGGTGGCGGCGTGGCCGGCCGTCACCCAGCGCTGGGGGGCCGACATCGAGTACGCGGACCTGCGCTATCCGAACGGGTTCGCGATTCGCGCGGCAGGCATGCGCTTTCTGAGCGACA (double strand) [ftsAp (ftsA putative promoter)]”: the binding result is “binds”.
Regarding “TCGACGGCGATGGGCCTGCTCGTGGAAGGCAGCGCGCAACGAATGCGCGGCCGCAAGGTCGCAGTGCAATCGGGTTCGGCGGGCCAGATCTTCACGCGGATGAAGGACTGGTTCCTGAGCAATTTCTGAACGGGTTTTGCGCCGGTGCCGGCGGCCGGCGCGCGACGGGAGGTTGCCCGATCTTCCGCCGGATAACGGCCGAGTGGTTATATCTTT (double strand) [ftsZp (ftsZ putative promoter)]”, the binding result was “binds”.
